Test results from patent US9127303B2, “Method for detection of beta-D-glucuronidase activity in a sample” (Biosynth AG, priority 2011, dated 2015).

Assay: Broth in test tubes, sterile control (substrate without inoculum)
Details: NB, TBB, 0.1 mM, 37° C., 16 hours

**Q.** For `O=C([O-])C1OC(Oc2ccc3nc4ccc(=O)cc-4oc3c2)C(O)C(O)C1O.[Na+]` [Resorufin-beta-D-glucuronic acid, reference compound], which “Result, colour scored visually” value is on record?
**A.** Its value is “Negative”.
